Experimental data: paper PMC8070564, “Synthesis and Antiviral Activity of Camphene Derivatives against Different Types of Viruses” (Molecules, 2021)

What was measured:
rVSV-ΔG-EboV-GP = assay type: cell-based, Ebola pseudotype viruses
rVSV-ΔG-Gn-Gc = assay type: cell-based, Hantaan virus strain 76–118; conditions: ratio CC50 / IC50

SMILES	SIEboV-GP (rVSV-ΔG-EboV-GP)	SI (rVSV-ΔG-Gn-Gc)
CC1(C)[C@@H]2CC[C@@]1(C)[C@H](OCCN1CCCC1)C2 (racemic) [Compound 2a, (±)-1-(2-(1,7,7-Trimethylbicyclo(2.2.1)heptan-2-yloxy)ethyl)pyrrolidine]	4166	39
CC1(C)[C@@H]2CC[C@@]1(C)[C@H](OCCN1CCCCC1)C2 (racemic) [Compound 3a, (±)-1-(2-(1,7,7-Trimethylbicyclo(2.2.1)heptan-2-yloxy)ethyl)piperidine]	150	30
CC1(C)[C@@H]2CC[C@@]1(C)[C@H](OCCCN1CCCCC1)C2 (racemic) [Compound 3b, (±)-1-(3-(1,7,7-Trimethylbicyclo(2.2.1)heptan-2-yloxy)propyl)piperidine]	4	–
CC1CCN(CCO[C@@H]2C[C@H]3CC[C@]2(C)C3(C)C)CC1 (racemic) [Compound 4a, (±)-4-Methyl-1-(2-(1,7,7-trimethylbicyclo(2.2.1)]heptan-2-yloxy)ethyl)piperidine]	357	–
CC1(C)[C@@H]2CC[C@@]1(C)[C@H](OCCCN1CCN(Cc3ccccc3)CC1)C2 (racemic) [Compound 6b, (±)-1-Benzyl-4-(3-(1,7,7-trimethylbicyclo(2.2.1)heptan-2-yloxy)propyl)piperazine]	2	–
CC1(C)[C@@H]2CC[C@@]1(C)[C@H](OCCN1CCOCC1)C2 (racemic) [Compound 7a, (±)-4-(2-(1,7,7-Trimethylbicyclo(2.2.1)heptan-2-yloxy)ethyl)morpholine]	1433	78
CC1(C)[C@@H]2CC[C@@]1(C)[C@H](OCCN1CCCCCC1)C2 (racemic) [Compound 8a, (±)-1-(2-(1,7,7-Trimethylbicyclo(2.2.1)heptan-2-yloxy)ethyl)azepane]	6	–
